Pooled drug test results. Numbers come from NIAID ChemDB, via PubChem.

All rows: toxicity to cultured cells; cells: MT-4; read-out: CC50

Conditions beyond the fields shown may differ between rows. CCn: concentration that lowers growth or viability of the cells by n%. Blank or dashed fields: not listed here.

compound | read by | result
CCNc1c(N=Nc2ccc(Cl)cc2)c(N)nc(=O)n1C | MTT | 36.72 µM
O=c1c2ccccc2nc2sc(Nc3ccccc3)nn12 | MTT | >35.3 µg/mL
Nc1nc(N)c2ncn([C@H]3C[C@H](F)[C@@H](CO)O3)c2n1 |  | 360 µM
COc1c(Cl)cc(C(=CCCCCN[C@H]2CC[C@]3(C)C4CC[C@@]5(C)C(CC[C@@H]5C(C)CCCC(C)C)C4CC[C@H]3C2)c2cc(Cl)c(OC)c(C(=O)O)c2)cc1C(=O)O |  | >150 µM
COc1ccc(N(C)C(=O)[C@H](Cc2cc(F)cc(F)c2)NC(=O)CN2CCN(S(=O)(=O)c3ccc([N+](=O)[O-])cc3)CC2=O)cc1 | MTT | 14.85 µM
Nc1nc2c(ncn2COC(CO)CO)c(=O)[nH]1 |  | >10 µM
C[C@]12CCC3C(CC=C4CC(O)CC[C@@]43C)C1CCC2C1=NN(C(N)=S)C(c2ccc(Br)cc2)C1 |  | 11.78 µM
CCN(CC)c1c(N=Nc2ccc(-c3ccc(OC)c(OC)c3)cc2)c(N)nc(=O)n1C | MTT | 25.23 µM
COc1c(Cl)cc(C(=CCCNC(=O)C[C@H]2CC[C@]3(C)C4CC[C@@]5(C)C(CC[C@@H]5CC(=O)NCCC=C(c5cc(Cl)c(OC)c(C(=O)O)c5)c5cc(Cl)c(OC)c(C(=O)O)c5)C4CC[C@H]3C2)c2cc(Cl)c(OC)c(C(=O)O)c2)cc1C(=O)O |  | >125 µM
CC(C)(C)[Si](C)(C)OCC1O[C@@H](NC(=O)NC(=O)c2ccccc2)C(O[Si](C)(C)C(C)(C)C)C12OS(=O)(=O)C=C2N |  | 14 µM
Cc1cc(C)cc(N2C(=O)CSC2c2c(Cl)cccc2Cl)c1 |  | 20.1 µM
N#CC1=CC2Nc3ccccc3C2N(c2ccc([N+](=O)[O-])cc2)C1=O | trypan blue | 50 µM
O=C1CSC(c2c(F)cccc2F)N1c1cc(Cl)cc(Cl)c1 |  | 113 µM
C#Cc1ccc(Nc2nccc(Oc3c(C)cc(-c4cn(Cc5ccc(C(=O)OC)cc5)nn4)cc3C)n2)cc1 | MTT | 128 µM
COc1ccc(N(C)C(=O)[C@H](Cc2cc(F)cc(F)c2)NC(=O)CN2CCN(S(=O)(=O)c3ccccc3)CC2=O)cc1 | MTT | 113.9 µM
CC1CCC(C(C)C)/C(=N/NC(=S)Nc2ccc(Cl)cc2)C1 |  | 2.4 µg/mL
CN(C)c1c(N=Nc2ccc(Cl)cc2)c(N)nc(=O)n1C | MTT | 28.24 µM
C[C@]12CCC3C(CC=C4CC(O)CC[C@@]43C)C1CCC2C(/C=C/c1ccc(Br)cc1)=N/O |  | 7.92 µM
C=C(C)[C@@H]1CC[C@]2(COC(=O)c3cccnc3)CC[C@]3(C)[C@H](CC[C@@H]4[C@@]5(C)CC[C@H](OC(=O)c6cccnc6)C(C)(C)[C@@H]5CC[C@]43C)[C@@H]12 |  | >20 µg/mL
CC1CC(C)CN(S(=O)(=O)c2ccccc2[N+](=O)[O-])C1 | trypan blue | >50 µM
COc1ccc(C(C)c2c(C)c(=O)[nH]c(=O)n2COCc2ccccc2)cc1 | MTT | >329 µM
CC1(C)C(N)=C(c2ccccc2)S(=O)(=O)N1Cc1cccc(Cl)c1 |  | >125 µg/mL
NC(=O)CNC(=O)c1[nH]c2ccc(Cl)cc2c1S(=O)(=O)c1ccccc1 |  | 65 µM
O=C1CSC(c2c(Cl)cccc2Cl)N1c1cc(F)cc(F)c1 |  | 43.31 µM
C#Cc1ccc(Nc2nccc(Oc3c(C)cc(-c4cn(CCc5cccs5)nn4)cc3C)n2)cc1 | MTT | 5.53 µM
O=C1CSC(c2c(Cl)cccc2Cl)N1c1cccc(Br)c1 |  | 27.78 µM
Nc1ncnc2c1ncn2[C@H]1CO[C@@H](CCP(=O)(O)O)O1 |  | >100 µg/mL
C[C@]12CCC3C(CC=C4C[C@@H](O)CC[C@@]43C)C1CCC2C(=O)/C=C/c1cc(Br)ccc1O |  | 12.05 µM
CC(C)C([NH3+])C(=O)OC(C)C1C/C=C/CCC(O)C(C)(C)C2CCC(C)C3(O2)O[B-]24OC3C(=O)OC3COC(CCCC(O)C(C)(C)C5CCC(C)C(O5)(O2)C(O4)C(=O)O1)C3 |  | 0.22 µM
Cc1cccc(Nc2nn3c(=O)c4ccccc4nc3s2)c1 | MTT | >32 µg/mL
Cc1c(C(C)c2ccc3ccccc3c2)n(COCc2ccccc2)c(=O)[nH]c1=O | MTT | >312 µM
COc1ccc(N(C)C(=O)[C@H](Cc2cc(F)cc(F)c2)NC(=O)CN2CCN(S(=O)(=O)c3ccc(F)cc3)CC2=O)cc1 | MTT | >202 µM
Cc1cccc(N2C(=O)CSC2c2c(Cl)cccc2Cl)c1 |  | 20.8 µM
Nc1ccn(CCN2C(=O)CSC2COCc2ccccc2)c(=O)n1 |  | ~100 µM
COc1cccc2c(C#N)c3ccccc3c(NC(=S)N[C@H]3C[C@H](n4cc(C)c(=O)[nH]c4=O)O[C@@H]3CO)c12 |  | 52.5 µg/mL
O=S(=O)(O)c1ccc(NS(=O)(=O)c2ccc(-c3ccc(S(=O)(=O)Nc4ccc(S(=O)(=O)O)c5cccc(S(=O)(=O)O)c45)cc3)cc2)c2c(S(=O)(=O)O)cccc12 |  | >500 µg/mL
C[C@]12CCC3C(CC=C4CC(O)CC[C@@]43C)C1CCC2C1=NN(C(N)=S)C(c2ccc(C(F)(F)F)cc2)C1 |  | 7.92 µM
CC1(C)C(N)=CS(=O)(=O)N1Cc1cccc(Cl)c1 |  | >125 µg/mL
C=C(C)[C@@H]1C[C@@H](COC(=O)c2ccccc2)[C@@]23OC45OC1(O4)[C@@H]2[C@@H]1O[C@]1(CO)[C@@H](O)[C@@]1(O)[C@H]3[C@H]([C@H](C)[C@@H]1OC(=O)c1ccccc1)[C@H](C)CCCCCC[C@H]5O | ATP / luminescence | ≥1.29 µM
O=C1CSC(c2c(F)cccc2F)N1c1cccc(Cl)c1 |  | 44.2 µM
C/C1=C\C=C\C2(C)C=C(CO[C@H]3O[C@H](CO)[C@H](O)[C@H](O)[C@H]3O)C(C)CC23OC([O-])C(C3=O)C(O)/C=C/C2(C)C=C(C=O)C(C)CC23OC([O-])C(C3=O)C(O)/C(C)=C/C=C/C2C=C(CO[C@H]3O[C@H](CO)[C@H](O)[C@H](O)[C@H]3O)C(C)CC23OC([O-])C(C3=O)C(O)/C=C/C2(C)C=C(C=O)C(C)CC23OC([O-])C(C3=O)C1O |  | 100 µg/mL
CCOCn1c(Cc2ccc3ccccc3c2)c(C)c(=O)[nH]c1=O |  | 158 µM
COc1ccc(N(C)C(=O)[C@H](Cc2cc(F)cc(F)c2)NC(=O)CN2CCN(S(=O)(=O)c3cccc(Cl)c3)CC2=O)cc1 | MTT | 9.05 µM
CCCc1c(Cc2ccc3ccccc3c2)n(COCc2ccccc2)c(=O)[nH]c1=O |  | 31.8 µM
NNC(=O)c1[nH]c2ccc(Cl)cc2c1S(=O)(=O)c1ccccc1 |  | >100 µM
COC([C@@H]1OC[C@@](O)(CO)[C@H]1N=[N+]=[N-])n1ccc(N)nc1=O |  | >300 µM
Cc1ccc(NC(=S)N/N=C2\CC(C)CCC2C(C)C)cc1 |  | 2.6 µg/mL
CCOCn1c(Cc2ccc3ccccc3c2)c(CC)c(=O)[nH]c1=O |  | 82.2 µM
Nc1nc(N)c2ncn([C@H]3C=C[C@@H](CO)O3)c2n1 |  | 34 µM
Cc1ccnc2c1NC(=O)c1cccnc1N2C1CC1 | MTT | >100 µM
CCc1cn([C@H]2C[C@H](F)[C@@H](CO)O2)c(=O)[nH]c1=O |  | >625 µM
Cc1cc(C)cc(S(=O)(=O)c2c(C(=O)NCC(=O)NC(C)C(=O)NN)[nH]c3ccc(Cl)cc23)c1 | MTT | 100 µM
CCc1cccc(N2C(=O)CSC2c2c(F)cccc2F)c1 |  | 39.14 µM
Nc1nc(=O)n([C@H]2C[C@H](F)[C@@H](CO)O2)cc1Br |  | 20 µM
Cc1cn([C@H]2C[C@H](N=[N+]=[N-])[C@@H](CO)O2)c(=O)[nH]c1=O | MTT | 210 µM
O=C(O)C1=CC(=C(c2ccc(O)c(C(=O)O)c2)c2ccc(O)c(C(=O)O)c2)C=C(Cc2ccc(O)c(C(=O)O)c2)C1=O |  | 49 µg/mL
COc1ccc(N(C)C(=O)[C@H](Cc2cc(F)cc(F)c2)NC(=O)CN2CCN(S(=O)(=O)c3cccc(N)c3)CC2=O)cc1 | MTT | 108.6 µM
Cc1cc(C)cc(S(=O)(=O)c2c(C(=O)NC(C)C(=O)NN)[nH]c3ccc(Cl)cc23)c1 |  | 20 µM
COc1ccc(-c2cc(N)nc(=O)n2C)cc1OC | MTT | 14.23 µM
O=C(O)c1cc(C(O)(c2ccc(O)c(C(=O)O)c2)c2ccc(O)c(C(=O)O)c2)ccc1O |  | 41 µg/mL
Cn1c(-c2ccc(F)cc2)c(N=Nc2ccc(-c3ccc(F)cc3)cc2)c(N)nc1=O | MTT | 66.6 µM
Nc1ncnc2c1ncn2[C@H]1CC[C@@H](CO)O1 |  | 890 µM
COc1c(Cl)cc(C(=CCCCCN(C(=O)C=C(c2cc(Cl)c(OC)c(C(=O)O)c2)c2cc(Cl)c(OC)c(C(=O)O)c2)[C@H]2CC[C@]3(C)C4CC[C@@]5(C)C(CC[C@@H]5C(C)CCCC(C)C)C4CC[C@H]3C2)c2cc(Cl)c(OC)c(C(=O)O)c2)cc1C(=O)O |  | 33 µM
CC1(Cc2ccccc2)OS(=O)(=O)C=C1N |  | >125 µg/mL
O=C(O)c1cccc(Cc2cccc(C(=O)O)c2O)c1O |  | 38 µg/mL
COc1ccc(N(C)C(=O)[C@H](Cc2cc(F)cc(F)c2)NC(=O)CN2CCN(S(=O)(=O)c3ccc(N)cc3)CC2=O)cc1 | MTT | 117 µM
Cn1c(Cl)c(N=Nc2ccc(Cl)cc2)c(N)nc1=O | MTT | 2.15 µM
COc1ccc(C(C)c2c(C)c(=O)[nH]c(=O)n2COCc2ccccc2)cc1OC | MTT | >186 µM
CC(C)[C@@H]1CC[C@@H](C)C/C1=N\NC(N)=S |  | 12.7 µg/mL
COC(=O)c1ccc(C2(C)OS(=O)(=O)C=C2N)cc1 |  | >125 µg/mL
C[C@]12CCC3C(CC=C4C[C@@H](O)CC[C@@]43C)C1CCC2C(=O)/C=C/c1ccc(Br)cc1 |  | 13.3 µM
CCCCCCC(C)[C@H]1CCC2C3CC[C@H]4C[C@@H](CCC=C(c5cc(Cl)c(O)c(C(=O)O)c5)c5cc(Cl)c(O)c(C(=O)O)c5)CC[C@]4(C)C3CC[C@@]21C |  | >125 µM
C[C@]12CCC3C(CC=C4CC(O)CC[C@@]43C)C1CCC2C(=O)/C=C/c1ccc(/C=C/C(=O)C2CCC3CCC4C(CC=C5C[C@@H](O)CC[C@@]54C)[C@]32C)cc1 |  | 47.75 µM
COC([C@@H]1OC[C@@](O)(CO)[C@H]1N=[N+]=[N-])n1cnc2c(N)ncnc21 |  | >300 µM
CCCc1c(Cc2ccc3ccccc3c2)n(COC)c(=O)[nH]c1=O |  | 71.7 µM
Cc1cn([C@H]2C[C@H](N=[N+]=[N-])[C@@H](CO)O2)c(=O)nc1N |  | >1000 µM
CCOCn1c(Cc2ccc(Cl)cc2)c(CC)c(=O)[nH]c1=O |  | >100 µM
COc1ccc(-c2ccc(N=Nc3c(N)nc(=O)n(C)c3N(Cc3ccccc3)Cc3ccccc3)cc2)cc1OC | MTT | 2.29 µM

Repeating the final 6 entries:

compound | read by | result
C[C@]12CCC3C(CC=C4CC(O)CC[C@@]43C)C1CCC2C(=O)/C=C/c1ccc(/C=C/C(=O)C2CCC3CCC4C(CC=C5C[C@@H](O)CC[C@@]54C)[C@]32C)cc1 |  | 47.75 µM
COC([C@@H]1OC[C@@](O)(CO)[C@H]1N=[N+]=[N-])n1cnc2c(N)ncnc21 |  | >300 µM
CCCc1c(Cc2ccc3ccccc3c2)n(COC)c(=O)[nH]c1=O |  | 71.7 µM
Cc1cn([C@H]2C[C@H](N=[N+]=[N-])[C@@H](CO)O2)c(=O)nc1N |  | >1000 µM
CCOCn1c(Cc2ccc(Cl)cc2)c(CC)c(=O)[nH]c1=O |  | >100 µM
COc1ccc(-c2ccc(N=Nc3c(N)nc(=O)n(C)c3N(Cc3ccccc3)Cc3ccccc3)cc2)cc1OC | MTT | 2.29 µM